A mixed list of measured activities; the numbers were collected in NIAID ChemDB.

Shared fields: growth or infection tests; agent: HIV-1; read-out: EC90

ECn is the concentration giving n% inhibition of infection, replication or growth.

SMILES	strain	mutations	cells	read by	conditions	result
COc1ccc(/C=C(C)/C=C2\CO[C@@H](c3oc(OC)c(C)c(=O)c3C)C2)cc1OC	LAI	-	PBMC + LC5-RIC	fluorescence	-	0.5876 µM
Nc1nc(=O)n([C@@H]2CS[C@H](CO)O2)cc1F	-	A62V V75I F77L F116Y Q151M	Primary T lymphocytes	p24 / ELISA	-	2.1 µM
Cc1cn([C@H]2C[C@H](N=[N+]=[N-])[C@@H](CO)O2)c(=O)[nH]c1=O	CBL-1	-	C8166	cytopathic effect	-	0.1 µg/mL
Cc1cn([C@H]2C[C@H](N=[N+]=[N-])[C@@H](CO)O2)c(=O)[nH]c1=O	IIIB	-	H9	p24	-	1.575 µM
COc1oc([C@H]2C/C(=C/C(C)=C/c3cccc(Cl)c3)CO2)c(C)c(=O)c1C	LAI	-	PBMC + LC5-RIC	fluorescence	-	14.1 µM
O=c1[nH]cnc2c1ncn2[C@H]1CC[C@@H](CO)O1	XM-ABC-resistant	RT-K65R L74V M184V Y115F	PBMC	p24	-	38 µM
CCn1nc(Cc2ccc(C#N)cc2)cc1C1CCN(C[C@H]2CN([C@@H](C(=O)O)C(C)(C)C)C[C@@H]2c2cccc(F)c2)CC1	BaL	-	HeLa	β-galactosidase	50% human serum	0.0037 µM
O=C1Nc2ccc(Cl)cc2[C@@](C#CC2CC2)(C(F)(F)F)O1	-	A62V V75I F77L F116Y Q151M	Primary T lymphocytes	p24 / ELISA	-	0.44 µM
CCn1nc(Cc2cccc3ccccc23)cc1C1CCN(C[C@H]2CN([C@@H](C(=O)O)C(C)(C)C)C[C@@H]2c2cccc(F)c2)CC1	BaL	-	HeLa	β-galactosidase	-	<0.00014 µM
COc1oc([C@H]2C/C(=C/C(C)=C/c3ccc(C(=O)O)cc3)CO2)c(C)c(=O)c1C	LAI	-	PBMC + LC5-RIC	fluorescence	-	241 µM
CCn1nc(Cc2ccc(OC(C)(C)C)cc2)cc1C1CCN(C[C@H]2CN([C@@H](C(=O)O)C(C)C)C[C@@H]2c2cccc(F)c2)CC1	BaL	-	HeLa	β-galactosidase	50% human serum	0.1 µM
CC(C)(C)NC(=O)[C@@H]1C[C@@H]2CCCC[C@@H]2CN1C[C@@H](O)[C@H](Cc1ccccc1)NC(=O)[C@H](CC(N)=O)NC(=O)c1ccc2ccccc2n1	NL4-3	PR-I84V	MT-4	p24	-	0.09 µM
CCOc1ccc(Cc2cc(C3CCN(C[C@H]4CN([C@@H](C(=O)O)C(C)C)C[C@@H]4c4cccc(F)c4)CC3)n(CC)n2)cc1F	BaL	-	HeLa	β-galactosidase	-	<0.00014 µM
Cc1cn([C@H]2C[C@H](N=[N+]=[N-])[C@@H](CO)O2)c(=O)[nH]c1=O	XM-AZT-resistant	RT-M41L D67N K70R T215Y K219Q	MT-4	p24	-	23 µM
CCn1nc(Cc2ccc(OC)cc2)cc1C1CCN(C[C@H]2CN([C@@H](C(=O)O)C(C)(C)C)C[C@@H]2c2cccc(F)c2)CC1	BaL	-	HeLa	β-galactosidase	50% human serum	0.033 µM
N#CC[C@H](C1CCCC1)n1cc(-c2ncnc3[nH]ccc23)cn1	-	M184V	Primary T lymphocytes	p24 / ELISA	-	3.2 µM
CC[C@H](C)[C@H](C(=O)O)N1C[C@H](CN2CCC(c3cc(Cc4ccc(OC(F)F)cc4)nn3CC)CC2)[C@@H](c2cccc(F)c2)C1	BaL	-	HeLa	β-galactosidase	50% human serum	0.011 µM
COc1oc([C@H]2C/C(=C/C(C)=C/c3ccc(S(C)(=O)=O)cc3)CO2)c(C)c(=O)c1C	LAI	-	PBMC + LC5-RIC	fluorescence	-	8.411 µM

The last 2 rows once more:

SMILES	strain	mutations	cells	read by	conditions	result
CC[C@H](C)[C@H](C(=O)O)N1C[C@H](CN2CCC(c3cc(Cc4ccc(OC(F)F)cc4)nn3CC)CC2)[C@@H](c2cccc(F)c2)C1	BaL	-	HeLa	β-galactosidase	50% human serum	0.011 µM
COc1oc([C@H]2C/C(=C/C(C)=C/c3ccc(S(C)(=O)=O)cc3)CO2)c(C)c(=O)c1C	LAI	-	PBMC + LC5-RIC	fluorescence	-	8.411 µM

Lines come from different laboratories, so protocols vary. An empty or dashed field is not shown.